Mutational tolerance of the Zika virus NS2B-NS3 protease

Chain scanned (Zika virus MR766; NS2B from position 2 to 131, then the start of NS3):
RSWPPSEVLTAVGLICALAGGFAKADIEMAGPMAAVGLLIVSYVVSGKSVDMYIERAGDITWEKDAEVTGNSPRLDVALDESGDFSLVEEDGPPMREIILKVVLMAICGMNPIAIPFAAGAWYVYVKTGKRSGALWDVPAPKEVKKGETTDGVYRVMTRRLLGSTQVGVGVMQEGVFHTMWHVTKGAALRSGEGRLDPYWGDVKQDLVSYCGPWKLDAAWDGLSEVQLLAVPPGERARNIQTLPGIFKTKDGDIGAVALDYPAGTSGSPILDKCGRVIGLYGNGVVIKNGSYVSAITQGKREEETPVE

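Pools of virus carrying all single amino acid changes were selected for growth in Huh-7.5 cells. The effect is the change in frequency of a mutant, normalised to wild type, as a mean of three replicate libraries (two for positions 207-308). The aim was to find sites where inhibitor-binding pockets cannot change.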

Values are log2 effects on growth: 0 is wild type, lower means poorer growth. A change reads original residue, position, new residue. Values above 0 are not proof of better growth: six high scorers were tested one by one, five grew less well than wild type and one about as well. Position 1 still belongs to NS2A. In the paper, -1 or higher counts as tolerated. Stop codons (*) centre on -7 and mark the level of dead virus. The region was split into three libraries (1-103, 104-206, 207-308).

| substitution | log2 growth effect |
|---|---|
| P233Q | -5.12 |
| L216Y | -6.87 |
| E7W | -5.65 |
| R195E | -5.67 |
| N71M | -5.70 |
| R301V | -2.48 |
| E193N | -0.27 |
| G255N | -6.63 |
| E89G | 1.06 |
| G20H | -5.89 |
| V45R | -7.19 |
| K48M | -6.53 |
| V286N | -5.12 |
| W181Q | -5.09 |
| P262C | -3.79 |
| N283F | -5.56 |
| R301M | -6.51 |
| E193C | -0.43 |
| G129T | -6.88 |
| N283W | -4.82 |
| I15N | -7.48 |
| G83D | -4.75 |
| L14V | -0.24 |
| L79G | -7.04 |
| D80F | -5.83 |
| L259K | -5.27 |
| A237W | -4.08 |
| A19P | -8.35 |
| E143S | -0.78 |
| P232S | 0.30 |
| C16F | -4.53 |
| I113R | -6.45 |
| T265Y | -3.03 |
| T128Q | -0.67 |
| W214* | -9.11 |
| D84V | -7.07 |
| T165Y | -0.80 |
| W200Q | -6.81 |
| G147A | -0.85 |
| F22L | 0.43 |
| T297G | -5.53 |
| K288C | -4.98 |
| L75Y | -6.94 |
| I287L | -0.38 |
| E193D | 0.49 |
| K288P | 0.08 |
| I287A | -0.16 |
| G201H | -5.13 |
| N111F | -1.80 |
| L79* | -7.74 |
| K142E | -3.74 |
| A118F | -5.23 |
| P112R | -6.95 |
| G163W | -5.66 |
| M110C | -0.72 |
| V226W | -4.95 |
| D217I | -5.79 |
| D251W | -5.54 |
| L14K | -5.81 |
| L135F | -6.18 |
| A11L | -5.53 |
| G222T | -1.90 |
| E67Y | -4.95 |
| S291D | -3.73 |
| F22W | -2.92 |
| V144F | -1.62 |
| V12Q | -5.49 |
| Y292P | -5.65 |
| R155T | -6.99 |

The last 3 entries again:

- V12Q -> -5.49
- Y292P -> -5.65
- R155T -> -6.99

Data from the supplement of Ni et al. 2025, doi:10.1038/s41467-025-63602-z.